A mixed list of measured activities; the numbers were collected in NIAID ChemDB.

Common to all: target-level tests; organism: HIV-1; protein: Reverse transcriptase; method: nucleotide incorporation / radiometric; read-out: IC50

ICn: concentration for n% inhibition. Conditions beyond the fields shown may differ between rows. a–b is a range or a potency band. An empty or dashed field is not shown.

structure	strain	mutations	value
CCN1c2ncc(CCOc3ccc(C(=O)O)c4ccccc34)cc2C(=O)N(C)c2cccnc21		RT-Y188L	>1 µM
Cc1cn([C@H]2C=C[C@@H](COP(=O)(O)OP(=O)(O)OP(=O)(O)O)O2)c(=O)[nH]c1=O		RT-P225H	0.03 µM
Cc1cn([C@H]2CC[C@@H](COP(=O)(O)OP(=O)(O)OP(=O)(O)O)O2)c(=O)[nH]c1=O		RT-I132A	0.07 µM
Cc1c(Cc2c(F)cccc2F)nc(SCc2ccc(C(C)C)cc2)[nH]c1=O		RT-181I	>400 µM
CCC1(c2cccc(Cl)c2)Oc2ccccc2-n2cccc2C1=O		RT-K103N	>100 µM
CCN1c2ncc(COc3ccccc3)cc2C(=O)N(C)c2ccc(Cl)nc21	WT		<1 µM
CC(Sc1nnnn1-c1cccc2ccccc12)C(=O)Nc1ccccc1[N+](=O)[O-]			<2 µM
CCC1(c2ccc(CNc3cccc(F)c3)cc2)Oc2ccccc2-n2cccc2C1=O		RT-K103N	2.3 µM
CCN1c2ncc(CCOc3ccc(/C=C(\C)C(=O)O)c4ccccc34)cc2C(=O)Nc2c(C)cc(F)nc21		RT-K103N Y181C	0.1–1 µM
CCN1c2ncc(CCc3ccccc3)cc2C(=O)Nc2c(C)cc(Cl)nc21	WT		<1 µM
CCN1c2ncc(CCOc3ccc(C(=O)O)c4ccccc34)cc2C(=O)Nc2c(C)cc(Cl)nc21	WT		<0.1 µM
COc1ccc(NC(=O)CSc2nnnn2-c2c(C)cc(C)cc2C)c(C)c1			<2 µM
CCN1c2ncc(CCc3ccccc3)cc2C(=O)N(C)c2cccnc21		RT-Y181C	<1 µM
CCN1c2ncc(CCOc3ccc(C(=O)O)c4c3CCCC4)cc2C(=O)N(C)c2cccnc21	WT		<0.1 µM
CCC1(c2cccc(COc3ccccc3)c2)Oc2ccccc2-n2cccc2C1=O		RT-Y188L	10 µM
COc1ccc(CSc2nc(Cc3ccc(F)cc3)c(C)c(=O)[nH]2)cc1		RT-181I	>400 µM
Nc1nc2c(ncn2[C@H]2CC[C@@H](COP(=O)(O)OP(=O)(O)OP(=O)(O)O)O2)c(=O)[nH]1	WT		0.13 µM
CCN1c2ncc(CCOc3ccc(CCC(=O)NN)c4ccccc34)cc2C(=O)N(C)c2cccnc21		RT-V106A	>1 µM
CCN1c2ncc(CNc3cccc([N+](=O)[O-])c3)cc2C(=O)N(C)c2ccc(Cl)nc21		RT-Y181C	<1 µM
CCOc1cccc(C2(CC)Oc3ccccc3-n3cccc3C2=O)c1		RT-K103N	3.5 µM
CCN1c2ncc(CCOc3ccc(S(N)(=O)=O)c4ccccc34)cc2C(=O)N(C)c2cccnc21		RT-K103N Y181C	<0.1 µM
C=C(C)CCOCc1ccc(C2(CC)Oc3ccccc3-n3cccc3C2=O)cc1	WT		2.8 µM
Cc1cc(C)c(-n2nnnc2SCC(=O)Nc2cccc3cccnc23)c(C)c1			<2 µM
CCN1c2ncc(CCOc3ccc(CC(=O)O)c4ccccc34)cc2C(=O)N(C)c2ccc(F)nc21		RT-Y188L	>1 µM
CCN1c2ncc(CCc3ccccc3)cc2C(=O)Nc2c1nc(Cl)c(Br)c2C		RT-Y181C	<1 µM
Nc1ccn([C@H]2CC[C@@H](COP(=O)(O)OP(=O)(O)OP(=O)(O)O)O2)c(=O)n1		RT-V106A P225H	3.42 µM
Cc1c(Cc2c(F)cccc2F)nc(SCc2ccc(C#N)cc2)[nH]c1=O		RT-181I	>400 µM
CCN1c2ncc(CCOc3ccc4cc(C(=O)O)ccc4c3)cc2C(=O)N(C)c2cccnc21		RT-K103N Y181C	0.1–1 µM
COc1cc(CSc2nc(Cc3c(Cl)cccc3Cl)c(C)c(=O)[nH]2)cc(OC)c1		RT-K103N	>400 µM
CCN1c2ncc(CNc3ccccc3)cc2C(=O)N(C)c2ccc(Cl)nc21	WT		<1 µM
Cc1ccccc1NC(=O)CSc1nnnn1-c1cccc2ccccc12			<2 µM
Cc1c(Cc2ccc(F)cc2)nc(SCc2ccc([N+](=O)[O-])cc2)[nH]c1=O	WT		>400 µM
O=C(CSc1nnnn1-c1cccc2ccccc12)Nc1ccccn1			<2 µM
CCN1c2ncc(OCc3ccccc3)cc2C(=O)N(C)c2ccc(Cl)nc21		RT-Y181C	>1 µM
CCC1(c2ccc(Cn3ccsc3=N)cc2)Oc2ccccc2-n2cccc2C1=O		RT-Y188L	>10 µM

For reference, 5 entries again:

{"structure": "Cc1cc(C)c(-n2nnnc2SCC(=O)Nc2cccc3cccnc23)c(C)c1", "value": "<2 µM"}
{"structure": "COc1cc(CSc2nc(Cc3c(Cl)cccc3Cl)c(C)c(=O)[nH]2)cc(OC)c1", "mutations": "RT-K103N", "value": ">400 µM"}
{"structure": "CCN1c2ncc(CCOc3ccc4cc(C(=O)O)ccc4c3)cc2C(=O)N(C)c2cccnc21", "mutations": "RT-K103N Y181C", "value": "0.1–1 µM"}
{"structure": "CCOc1cccc(C2(CC)Oc3ccccc3-n3cccc3C2=O)c1", "mutations": "RT-K103N", "value": "3.5 µM"}
{"structure": "Cc1ccccc1NC(=O)CSc1nnnn1-c1cccc2ccccc12", "value": "<2 µM"}